Assay [1] relates to Schistosoma mansoni. The assay can be described thus: Antischistosomal activity against Schistosoma mansoni assessed as parasite killing after 4 hrs. The class given is functional. The procedure, abridged: (§1)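 Cultured ex vivo worms were exposed to 10 μM compound. Worm effects were scored by visual examination at time points over a 72 h time-course.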
Assay [2] relates to Schistosoma mansoni. The assay can be described thus: Antischistosomal activity against Schistosoma mansoni assessed as parasite killing after 2 hrs. In kind it is functional, organism-based. The procedure, abridged:
as §1

Assay [3] concerns Schistosoma mansoni. The assay can be described thus: Antischistosomal activity against Schistosoma mansoni assessed as induction of parasite mortality after 16 hrs. More on the design: concentration or dose not given beside the values. The class given is functional. In outline:
as §1

For assay [4], the system named is Schistosoma mansoni. The assay can be described thus: Antischistosomal activity against Schistosoma mansoni assessed as induction of parasite mortality after 48 hrs. In kind it is functional. On the set-up: concentration or dose not given beside the values. The procedure, abridged: as §1
Assay [5] deals with Schistosoma mansoni. The assay can be described thus: Antischistosomal activity against Schistosoma mansoni assessed as induction of parasite mortality after 24 hrs. The class given is functional. More on the design: concentration or dose not given beside the values. In outline: as §1

Active and inactive are the calls of the source. The calls are words filed in the database; no cut-off is given here.

On to `N#Cc1c(-c2ccc(-c3no[n+]([O-])c3C#N)s2)no[n+]1[O-]`, for which the Activity in the assay with Schistosoma mansoni [1] is 8%; in the assay on Schistosoma mansoni [3], 62%; in the assay on Schistosoma mansoni [4] it was 100%; in the assay with Schistosoma mansoni [5], 82%. For the same molecule, the result in the assay on Schistosoma mansoni [2] was inactive.

In the case of `N#Cc1c(-c2ccc(-c3no[n+]([O-])c3C#N)cc2)no[n+]1[O-]`, the outcome in the assay with Schistosoma mansoni [1] and in the assay on Schistosoma mansoni [2] was inactive. The results for the Activity in the assay with Schistosoma mansoni [3], with Schistosoma mansoni [4] and with Schistosoma mansoni [5] were 55%, 100% and 82%, respectively.

For the origin of these results see ChEMBL document CHEMBL1155233, “Structure mechanism insights and the role of nitric oxide donation guide the development of oxadiazole-2-oxides as therapeutic agents against schistosomiasis” (J Med Chem, 2009).
